Measured values from several laboratories, pooled; numbers as filed in NIAID ChemDB.

Common to all: growth or infection tests; species: Herpes simplex virus 2; measure: EC50

Neighbouring rows are from separate reports. Blank or dashed fields: not listed here. ECn is the concentration giving n% inhibition of infection, replication or growth.

| structure | strain | method | cells | value |
|---|---|---|---|---|
| O=C(O)C(F)P(=O)(O)O | G | plaque count |  | 130 µM |
| Nc1ncnc2c1ncn2CC/C=C/P(=O)(O)O | MS | plaque count | MRC-5 | >300 µM |
| COc1cc(OC)c2c(=O)c3ccccc3n(C)c2c1 |  | plaque count | HEF | >20 µg/mL |
| Nc1ncnc2c1ncn2OC(/C=C/P(=O)(O)O)CO | MS | plaque count | MRC-5 | >300 µM |
| Nc1ncnc2c1ncn2[C@@H]1C[C@@H](O)[C@H](CO)O1 |  |  | HFF | >100 µM |
| COc1cc(O)c2c(=O)c3cccc(O)c3n(C)c2c1OC | TK- | plaque count | HEF | 0.92 µg/mL |
| C[C@H]1O[C@@H](O[C@H]2CC[C@]3(C=O)[C@H]4CC[C@]5(C)[C@@H](C6=CC(=O)OC6)CC[C@]5(O)[C@@H]4CC[C@]3(O)C2)C[C@H](O)[C@@H]1O | 333 | plaque count | GMK AH1 | 0.004 µM |
| O=c1ccn(-c2ccc(F)cc2F)c2cc(-c3ccncc3)ccc12 | G |  | VERO | 0.078 µg/mL |
| C[C@H]1O[C@@H](O[C@H]2[C@@H](O)C[C@H](O[C@H]3CC[C@@]4(C)[C@H](CC[C@@H]5[C@@H]4CC[C@]4(C)[C@@H](C6=CC(=O)OC6)CC[C@]54O)C3)O[C@@H]2C)C[C@H](O)[C@@H]1O | 333 | plaque count | GMK AH1 | 0.09 µM |
| Nc1nc2c(ncn2CC/C=C\P(=O)(O)O)c(=O)[nH]1 | MS | plaque count | MRC-5 | >300 µM |
| CO[C@H]1[C@@H](O)C[C@H](O[C@H]2[C@@H](O)C[C@H](O[C@H]3[C@@H](O)C[C@H](O[C@H]4CC[C@@]5(C)[C@H](CC[C@@H]6[C@@H]5CC[C@]5(C)[C@@H](C7=CC(=O)OC7)CC[C@]65O)C4)O[C@@H]3C)O[C@@H]2C)O[C@@H]1C | 333 | plaque count | GMK AH1 | 0.09 µM |
| Nc1nc2c(ncn2CCC(CO)CO)c(=O)[nH]1 | HS-44 | cytopathic effect | HEL | >20 µg/mL |
| Nc1nc(N)c2ncn([C@@H]3S[C@H](CO)[C@H](O)[C@@H]3F)c2n1 |  |  |  | 0.05 µg/mL |
| Nc1ncnc2c1ncn2C[C@@H](O)[C@H](O)C(=O)O |  | cytopathic effect | PRK | >400 µg/mL |
| CC/C=C\C/C=C\C/C=C\C/C=C\C/C=C\CCCC(=O)OC(CO[C@H]1O[C@H](CS(=O)(=O)O)[C@@H](O)[C@H](O)[C@H]1O)OC(=O)CCCCCCCCCCCCCCC |  | plaque count | VERO | 8.5 µg/mL |
| COc1cc2c(c3c1c(=O)c1ccccc1n3C)C=CC(C)(C)O2 |  | plaque count | HEF | 3.3 µg/mL |
| O=C(O)P(=O)(O)O | Lovelace | plaque count |  | 165 µM |
| Nc1nccc2c1ncn2[C@@H]1C[C@H](CO)[C@@H](O)[C@H]1O |  | cytopathic effect | PRK | ≥300 µg/mL |
| O=C(O)C(Br)P(=O)(O)O | Lovelace | plaque count |  | 890 µM |
| Nc1nc2c(ncn2COC(CO)CO)c(=O)[nH]1 | HS-44 | cytopathic effect | HEL | 6 µg/mL |
| C[C@]12CC[C@H](O)C[C@H]1CC[C@@H]1[C@@H]2C[C@@H](O)[C@]2(C)[C@@H](C3=CC(=O)OC3)CC[C@]12O | 333 | plaque count | GMK AH1 | 1.22 µM |
| Nc1ccn(C[C@@H](CO)OCP(=O)(O)O)c(=O)n1 | HS-47 | cytopathic effect | HEL | 0.32 µg/mL |
| COc1c(OC)c(OC)c2c(c1O)c(=O)c1ccc(O)c(OC)c1n2C |  | plaque count | HEF | 4.9 µg/mL |
| COc1cc(O)c2c(=O)cc(-c3ccc(OC)c(-c4c(O)cc(O)c5c(=O)cc(-c6ccc(O)cc6)oc45)c3)oc2c1 | UW-268 | plaque count | VERO | 0.83 µg/mL |
| CCCCCc1c(OC)cc(O)c2c(=O)c3ccccc3n(C)c12 |  | plaque count | HEF | >20 µg/mL |
| Nc1nc(N)c2ncn(CC/C=C/P(=O)(O)O)c2n1 | MS | plaque count | MRC-5 | >300 µM |
| O=c1c(O)c(-c2ccc(O)c(O)c2)oc2cc(O)cc(O)c12 |  |  | VERO | <60 µg/mL |
| Nc1ncnc2c1ncn2C1CC(CO)[C@@H](O)[C@H]1O |  | cytopathic effect | PRK | 7 µg/mL |
| COc1ccc(-c2cc(=O)c3c(O)cc(O)cc3o2)cc1 |  |  | VERO | >20 µg/mL |
| Nc1ncnc2c1ncn2OCC/C=C\P(=O)(O)O | MS | plaque count | MRC-5 | >300 µM |
| O=c1[nH]c(=O)n([C@H]2C[C@H](O)[C@@H](CO)O2)cc1/C=C/Br | HS-44 | cytopathic effect | HEL | >50 µg/mL |
| Nc1ncnc2c1ncn2CC/C=C\P(=O)(O)O | MS | plaque count | MRC-5 | >300 µM |
| CC1(C)C=Cc2c(cc(O)c3c(=O)c4ccccc4[nH]c23)O1 |  | plaque count | HEF | >20 µg/mL |
| Nc1ccn([C@@H]2C[C@@H](O)[C@H](CO)O2)c(=O)n1 |  |  | HFF | >100 µM |
| O=C(O)P(=O)(O)O | V12500 | plaque count | SIRC | <500 µM |
| CO[C@H]1C[C@H](O[C@H]2[C@@H](O)C[C@H](O[C@H]3[C@@H](O)C[C@H](O[C@H]4CC[C@@]5(C)[C@H](CC[C@@H]6[C@@H]5CC[C@]5(C)[C@@H](C7=CC(=O)OC7)CC[C@]65O)C4)O[C@@H]3C)O[C@@H]2C)O[C@H](C)[C@H]1O | 333 | plaque count | GMK AH1 | 0.05 µM |
| Nc1ncnc2c1ccn2[C@@H]1C[C@H](CO)[C@@H](O)[C@H]1O |  | cytopathic effect | PRK | 7 µg/mL |
| CCCCCc1c2c(c3c(c1O)c(=O)c1ccccc1n3C)C=CC(C)(C)O2 |  | plaque count | HEF | >20 µg/mL |
| C[C@H]1O[C@@H](O[C@H]2CC[C@@]3(C)[C@H](CC[C@@H]4[C@@H]3C[C@@H](O)[C@]3(C)[C@@H](C5=CC(=O)OC5)CC[C@]43O)C2)C[C@H](O)[C@@H]1O[C@H]1C[C@H](O)[C@H](O[C@H]2C[C@H](O)[C@H](O[C@@H]3C[C@H](CO)[C@@H](O)[C@H](O)[C@H]3O)[C@@H](C)O2)[C@@H](C)O1 | 333 | plaque count | GMK AH1 | 0.54 µM |
| O=C(O)C(Cl)(Br)P(=O)(O)O | G | plaque count |  | 790 µM |
| CCCCCc1c(OC)cc(O)c2c(=O)c3cccc(O)c3n(C)c12 |  | plaque count | HEF | 5 µg/mL |

The last 4 rows once more:

structure | strain | method | cells | value
CCCCCc1c2c(c3c(c1O)c(=O)c1ccccc1n3C)C=CC(C)(C)O2 |  | plaque count | HEF | >20 µg/mL
C[C@H]1O[C@@H](O[C@H]2CC[C@@]3(C)[C@H](CC[C@@H]4[C@@H]3C[C@@H](O)[C@]3(C)[C@@H](C5=CC(=O)OC5)CC[C@]43O)C2)C[C@H](O)[C@@H]1O[C@H]1C[C@H](O)[C@H](O[C@H]2C[C@H](O)[C@H](O[C@@H]3C[C@H](CO)[C@@H](O)[C@H](O)[C@H]3O)[C@@H](C)O2)[C@@H](C)O1 | 333 | plaque count | GMK AH1 | 0.54 µM
O=C(O)C(Cl)(Br)P(=O)(O)O | G | plaque count |  | 790 µM
CCCCCc1c(OC)cc(O)c2c(=O)c3cccc(O)c3n(C)c12 |  | plaque count | HEF | 5 µg/mL